Results deposited as PubChem BioAssay AID624099 (ICCB-Longwood, 2012)

Purpose: 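Human genes that papillomavirus E2 requires to repress the HPV18 LCR promoter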 (primary screen)
System: human C33A cervical carcinoma cells (HPV-negative) stably expressing BPV1 E2 and an HPV18 LCR luciferase reporter
Knock-down reagent: siRNA pool against human genes, 40 nM
Time to read-out: 72 h
Measurement: 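HPV18 LCR reporter light per well, converted to plate-wise z-scores that exclude control wells, and averaged over triplicate plates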
Direction: mean z-score and z-score: higher = stronger reporter signal, weaker E2 silencing
Active means: 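Hit if mean z-score reaches 2 and two or more of three replicate z-scores also reach 2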
Shown is a random part of about 21,000 reagents tested. 497 of all reagents (2.4%) count as active. 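Higher z means weaker E2 silencing; only reporter increases were scored, and knock-downs that hurt cell survival may mask genuine repressor factors.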 Reagents against one gene are numbered here.

gene knocked down,reagent no.,mean z-score,"z-score, replicate A","z-score, replicate B","z-score, replicate C",Outcome
DLX1,1,0.8,0.65,0.63,1.12,inactive
LOC401477 (retired record),1,0.62,0.91,0.51,0.45,inactive
LRRC4B,1,1.2,0.7,1.85,1.05,inactive
BCL7C,1,-0.53,-0.64,-0.48,-0.47,inactive
HNRNPH2,1,1.61,1.63,1.57,1.63,inactive
TRIP6,1,-0.22,-0.1,-0.42,-0.14,inactive
TTC19,1,0.91,1.1,0.84,0.8,inactive
OR51G1,1,0.43,0.36,0.16,0.75,inactive
NDUFAF4P2,1,-0.49,-0.7,0.23,-1.01,inactive
NDUFAF4P2,2,-1.09,-1.35,-1.13,-0.78,inactive
POGK,1,-0.09,-0.13,-0.14,-0.01,inactive
LOC219690 (retired record),1,1.53,1.29,1.93,1.36,inactive
GATD1,1,-0.15,-0.2,-0.29,0.03,inactive
LGSN,1,2.23,2.12,2.18,2.4,active
DENND4B,1,-0.87,-1.26,-0.53,-0.82,inactive
IFNGR1,1,1.56,1.33,1.79,1.57,inactive
ARMC10,1,0.7,0.78,0.67,0.65,inactive
XG,1,-0.14,-0.1,0.18,-0.51,inactive
LCMT2,1,0,0.14,-0.06,-0.07,inactive
GAGE5,1,-1.44,-1.74,-1.36,-1.23,inactive
TUBA3E,1,0.03,0.16,0.11,-0.17,inactive
LIPM,1,-0.31,0,-0.56,-0.36,inactive
SCLY,1,-0.98,-0.73,-1.33,-0.89,inactive
TAC1,1,-0.18,-0.1,-0.25,-0.2,inactive
PPP1R37,1,-0.64,-0.35,-1.05,-0.5,inactive
CYP2E1,1,0.76,0.7,0.66,0.94,inactive
COX10,1,0.09,-0.11,0.22,0.14,inactive
HEY2,1,-1.27,-1.22,-1.61,-0.99,inactive
CHSY3,1,-0.15,-0.41,0.08,-0.12,inactive
POMT2,1,-0.34,0.01,-0.4,-0.64,inactive
PRG2,1,0.56,0.47,0.73,0.49,inactive
SF3B6,1,0.31,0.46,0.36,0.12,inactive
BASP1,1,1.37,1.47,1.29,1.36,inactive
METTL8,1,-0.35,-0.99,-0.25,0.18,inactive
OR6C2,1,-0.2,-0.25,-0.52,0.17,inactive

A stretch taken from the entries so far, as a working copy:
gene knocked down,reagent no.,mean z-score,"z-score, replicate A","z-score, replicate B","z-score, replicate C",Outcome
SCLY,1,-0.98,-0.73,-1.33,-0.89,inactive
TAC1,1,-0.18,-0.1,-0.25,-0.2,inactive
PPP1R37,1,-0.64,-0.35,-1.05,-0.5,inactive
CYP2E1,1,0.76,0.7,0.66,0.94,inactive
COX10,1,0.09,-0.11,0.22,0.14,inactive
HEY2,1,-1.27,-1.22,-1.61,-0.99,inactive

Further reagents follow:
gene knocked down,reagent no.,mean z-score,"z-score, replicate A","z-score, replicate B","z-score, replicate C",Outcome
FGF3,1,0.37,0.21,0.43,0.47,inactive
TTPA,1,-0.2,-0.25,-0.25,-0.1,inactive
CLNK,1,0.79,0.67,0.5,1.19,inactive
TRIM29,1,-1.4,-1.75,-1,-1.44,inactive
LOC390377 (retired record),1,-0.78,-0.65,-0.66,-1.04,inactive
TCF20,1,0.55,0.47,0.65,0.53,inactive
ERICH5,1,1.03,1.03,0.8,1.25,inactive
LIM2,1,0.32,0.43,0.22,0.3,inactive
CD36,1,-0.13,-0.01,-0.21,-0.17,inactive
NPC2,1,-0.39,-0.63,-0.31,-0.22,inactive
GADD45A,1,2.38,2.39,2.34,2.4,active
SPECC1L,1,0.25,-0.17,0.41,0.51,inactive
OR10J1,1,-0.8,-1.02,-0.7,-0.67,inactive
CDC20,1,0.48,0.69,0.46,0.28,inactive
MGC34919 (retired record),1,0.27,0.22,0.19,0.41,inactive
ZNF419,1,0.78,1.06,0.81,0.48,inactive
SAXO6,1,0.44,0.66,0.35,0.3,inactive
CNPY3,1,0.18,0.7,0.14,-0.31,inactive
TNFRSF21,1,-0.46,-0.5,-0.53,-0.35,inactive
CYB561D2,1,-0.07,0.45,-0.25,-0.4,inactive
ETV4,1,1.58,2.14,1.61,0.98,inactive
ITPRID2,1,0.57,1.03,0.38,0.31,inactive
